Experimental data reported in paper PMC6028965, “Mechanism of vaccinia viral protein B14–mediated inhibition of IκB kinase β activation” (The Journal of Biological Chemistry, 2018).

Molecular target: untagged B14 protein (vaccinia virus, UniProt P24772 1-149)
Assay: pull-down

| Binder | binding result |
| --- | --- |
| GST-IKKβ-ULD-SDD M5 mutant (residues 421–426 substituted with GGGGS) (domain or fragment) LNLKLVHILNMVTGTIHTYPVTEDESLQSLKARIQQDTGIPEEDQELLQEAGLALIPDKPATQCISDGKLNEGHTLDMDLVFLFDNSKITYETQISPRPQPESVSCILQEPKRNGGGGSRKVWGQVWHSIQTLKEDCNRLQQGQRAAMMNLLRNNSCLSKMKNSMASMSQQLKAKLDFFKTSIQIDLEKYSEQTEFGITSDKLLLAWREMEQAVELCGRENEVKLLVERMMALQTDIVDLQRSPMGRKQGGTLDDLEEQARELYRRLREKPRDQRTEGDSQEMVRLLLQAIQSFEKKVRVIYTQLSKTVVCKQKALELLPKVEEVVSLMNEDEKTVVRLQEKRQKELWNLLKIACSKVRGPVSGSPDSMNA | binds |
| GST-IKKβ-ULD-SDD M6 mutant (residues 577–583 replaced with GGGGS) (domain or fragment) LNLKLVHILNMVTGTIHTYPVTEDESLQSLKARIQQDTGIPEEDQELLQEAGLALIPDKPATQCISDGKLNEGHTLDMDLVFLFDNSKITYETQISPRPQPESVSCILQEPKRNLAFFQLRKVWGQVWHSIQTLKEDCNRLQQGQRAAMMNLLRNNSCLSKMKNSMASMSQQLKAKLDFFKTSIQIDLEKYSEQTEFGITSDKLLLAWREMEQAVELCGRENEVKLLVERMMALQTDIVDLQRSPMGRKQGGTLDDLEEQARELYRRLREGGGGSEGDSQEMVRLLLQAIQSFEKKVRVIYTQLSKTVVCKQKALELLPKVEEVVSLMNEDEKTVVRLQEKRQKELWNLLKIACSKVRGPVSGSPDSMNA | binds |
